# Reference: patent US20230192660A1 (priority 2020, published 2023)
# Protein sequences, listed by entry. Tags and fused reporters are not part of them. Residues count along the entry.
# UniProt P0C6X1, 2966-3267 limits assumed: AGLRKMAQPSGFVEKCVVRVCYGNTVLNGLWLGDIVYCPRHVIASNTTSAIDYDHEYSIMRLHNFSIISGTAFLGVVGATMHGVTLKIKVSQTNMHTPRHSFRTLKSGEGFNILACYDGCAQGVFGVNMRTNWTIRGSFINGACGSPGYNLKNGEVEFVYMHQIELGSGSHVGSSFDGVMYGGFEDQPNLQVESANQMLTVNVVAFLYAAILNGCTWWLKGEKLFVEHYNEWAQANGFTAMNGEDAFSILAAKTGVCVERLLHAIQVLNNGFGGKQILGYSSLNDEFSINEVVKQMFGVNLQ
# UniProt P0C6X9, 3334-3635 limits assumed: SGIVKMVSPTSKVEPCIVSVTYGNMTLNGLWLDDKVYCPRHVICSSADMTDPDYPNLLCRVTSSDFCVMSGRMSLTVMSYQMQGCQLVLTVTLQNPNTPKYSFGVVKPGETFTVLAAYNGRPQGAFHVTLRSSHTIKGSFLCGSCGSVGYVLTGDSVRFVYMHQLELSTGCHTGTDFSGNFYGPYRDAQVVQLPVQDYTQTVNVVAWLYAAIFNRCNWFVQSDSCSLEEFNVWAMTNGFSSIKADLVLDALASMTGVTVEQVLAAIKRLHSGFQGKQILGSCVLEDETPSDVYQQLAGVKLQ
# Legend:
# mature SARSCoV2 M^pro = mature SARSCoV2 M^pro (Severe acute respiratory syndrome coronavirus 2, UniProt P0DTD1); experiment: In-vitro Mpro inhibition assay with fluorogenic peptide, mature enzyme; format: biochemical, SARS-CoV-2; details: read-out: IC50 SARSCov2 Mpro
# MERS Mpro = MERS Mpro (Middle East respiratory syndrome-related coronavirus, UniProt K9N7C7)
# HCoV229E Mpro = HCoV229E Mpro (Human coronavirus 229E, UniProt P0C6X1)
# SARS-CoV-2 mature Mpro = SARS-CoV-2 mature Mpro (Severe acute respiratory syndrome coronavirus 2, UniProt P0DTD1)
# SARS-Co-V2 MPro = SARS-Co-V2 MPro (Severe acute respiratory syndrome coronavirus 2, UniProt P0DTD1); experiment: Inhibition of SARS-Co-V2 MPro in vitro (Example 3, FIG. 7, preliminary data); format: biochemical, SARS-CoV-2; details: read-out: concentration for 50% inhibition (IC50)
# MHV M^pro = MHV M^pro (UniProt P0C6X9); experiment: In-vitro Mpro inhibition assay, MHV enzyme; format: biochemical, mouse hepatitis virus (MHV); details: read-out: IC50 MHV Mpro
SMILES,IC50 (mature SARSCoV2 M^pro) [nM],IC50 (MERS Mpro) [nM],IC50 (HCoV229E Mpro) [nM],ΔTm Mpro (SARS-CoV-2 mature Mpro) [°C],IC50 (SARS-Co-V2 MPro) [nM],IC50 (MHV M^pro) [nM]
CC1(C)[C@@H]2[C@@H](C(=O)N[C@@H](C[C@@H]3CCNC3=O)C(=O)C(N)=O)N(C(=O)OCc3ccccc3)C[C@@H]21,90,1400,610,15.5,,
CC(C)(C)C(=O)N[C@H](C(=O)N1C[C@H]2[C@@H]([C@H]1C(=O)N[C@@H](C[C@@H]1CCNC1=O)C(=O)C(N)=O)C2(C)C)C(C)(C)C,40,160,350,21.3,,
CC(C)(C)NC(=O)N[C@H](C(=O)N1C[C@@H]2CCC[C@@H]2[C@H]1C(=O)N[C@@H](C[C@@H]1CCNC1=O)C(=O)C(N)=O)C(C)(C)C,70,1300,1200,20.7,153,310
